Laboratory results: patent US11542313B2 (Eli Lilly and Company, priority 2017, dated 2023)

Assay: general procedure: Fmoc solid-phase peptide synthesis; Fmoc-Rink-MBHA Low Loading Resin, 1% DVB cross-linked polystyrene, 100-200 mesh, 0.3-0.4 meq/g (EMD Millipore); diisopropylcarbodiimide/Oxyma; PyAOP/DIPEA for fatty acid-linker
Conditions: whole synthesis, analytical RP-HPLC, TFA salt

## Y-Aib-QGTFTSDYSI-αMeL-LDKK((2-[2-(2-2-amino-ethoxy)-ethoxy]-acetyl)2-(γGlu)-CO—(CH2)18—CO2H)AQ-αMeK-AFIEYLLA-Aib-GPSSGAPPPS-NH2.
  final HPLC purity: 98.8%
